Data as given in PubChem BioAssay AID1259414 (Drosophila RNAi Screening Center, 2018).
Assay: 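Host factors increasing or decreasing Wolbachia levels in cultured fly cells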 (primary screen). Cells: Drosophila JW18 cells infected with Wolbachia. Reagents: long dsRNA against Drosophila genes, 0.25 µg dsRNA per well of a 384-well plate. Time to read-out: 5 days. Treatment: cells persistently infected with Wolbachia before knock-down; no added drug. Measurement: 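Automated imaging of bacterial rRNA staining divided by host cell count, reported as plate-normalised robust z-score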. Scale: Wolbachia per cell robust z: higher = more Wolbachia per host cell than the plate typical. Rule for the call: 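Active if absolute robust z reaches 1.5 in two or more of three replicates, leaving out multi- or no-target dsRNAs, genes unexpressed in JW18 and A1 wells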.
In all, the deposit lists about 24,000 reagents; below is a random part of those that have a named target and a result. Over the whole deposit, about 1,210 (5%) were called active. 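Inactive calls also include excluded dsRNAs with several or no targets, genes unexpressed in JW18, and well A1, regardless of score.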

Gene | DRSC id | Wolbachia per cell robust z, rep 1 | Wolbachia per cell robust z, rep 2 | Wolbachia per cell robust z, rep 3 | Outcome
heca (headcase) | DRSC22990 | 0.912 | -0.556 | -4.42 | inactive
heca (headcase) | DRSC25796 | 0.193 | 1.53 | 0.636 | inactive
Rab39 | DRSC17827 | -5.11 | 0.608 | -0.85 | inactive
CG4286 | DRSC04459 | 0.119 | -4.07 | -0.286 | inactive
CG4286 | DRSC24458 | -1.3 | 0.0929 | -1.77 | inactive
mgl (Megalin) | DRSC17800 | -0.142 | 0.0865 | 0.219 | inactive
mgl (Megalin) | DRSC17823 | -3.01 | -0.236 | -0.596 | inactive
mgl (Megalin) | DRSC17859 | -0.66 | 0.975 | 0.296 | inactive
mgl (Megalin) | DRSC23464 | 0.816 | -0.346 | 0.354 | inactive
CG15347 | DRSC18031 | 0.319 | 0.792 | 0.717 | inactive
CG6753 | DRSC16108 | -0.184 | -2.68 | -0.455 | inactive
CG6753 | DRSC28449 | 0.244 | 0.788 | 0.304 | inactive
CG12278 | DRSC14494 | 0.338 | -0.191 | -0.13 | inactive
Mfe2 (peroxisomal Multifunctional enzyme type 2) | DRSC19869 | 0.739 | -3.35 | 1.09 | inactive
trv (trivet) | DRSC13846 | -0.849 | -3.97 | -1.96 | inactive
trv (trivet) | DRSC14560 | 0.333 | -1.42 | -0.0869 | inactive
trv (trivet) | DRSC14561 | 0.451 | -0.227 | -0.706 | inactive
trv (trivet) | DRSC25527 | 0.44 | 0.85 | 0.494 | inactive
trv (trivet) | DRSC25789 | 0.263 | -0.164 | 0.987 | inactive
mRpL19 (mitochondrial ribosomal protein L19) | DRSC16367 | 0.23 | 0.29 | 0.569 | inactive
mRpL19 (mitochondrial ribosomal protein L19) | DRSC21618 | 0.667 | 0.932 | 0.147 | inactive
mRpL19 (mitochondrial ribosomal protein L19) | DRSC26104 | 0.642 | 0.877 | 2.42 | inactive
nanos | DRSC17018 | -0.806 | 0.382 | 0.409 | inactive
nanos | DRSC25268 | -0.434 | -0.393 | 0.94 | inactive
CG17249 | DRSC08517 | 0.658 | 0.849 | -0.0751 | inactive
Chs2 (Chitin synthase 2) | DRSC11830 | 0.985 | -6.31 | 0.245 | inactive
Flo1 (Flotillin 1) | DRSC07427 | 0.874 | 0.761 | 0.127 | inactive
Flo1 (Flotillin 1) | DRSC28122 | 0.0631 | -1.59 | 0.781 | inactive
Sym (Symplekin) | DRSC12301 | -0.427 | 0.00322 | 0.53 | inactive
Sym (Symplekin) | DRSC29255 | -0.0302 | -0.19 | -4.15 | inactive
Gycalpha99B (Guanylyl cyclase alpha-subunit at 99B) | DRSC16690 | 1.03 | 0.775 | 0.475 | inactive
Gycalpha99B (Guanylyl cyclase alpha-subunit at 99B) | DRSC24782 | 0.29 | -1.65 | -0.979 | inactive
alpha-Est5 (alpha-Esterase-5) | DRSC12617 | 0.312 | 0.33 | -0.391 | inactive
CG30384 | DRSC06032 | 0.456 | -1.11 | 0.555 | inactive
Dyro (Dpt-YFP repressor by overexpression) | DRSC10598 | -2.29 | 0.29 | -5.87 | active
Dyro (Dpt-YFP repressor by overexpression) | DRSC25276 | -0.146 | -0.0219 | 1.23 | inactive
gus (gustavus) | DRSC04885 | -0.919 | -1.64 | -0.163 | inactive
gus (gustavus) | DRSC04886 | -0.637 | -0.872 | -1.11 | inactive
gus (gustavus) | DRSC27153 | -0.743 | -0.318 | -1 | inactive
Gbp1 (Growth-blocking peptide 1) | DRSC06592 | -0.0977 | -0.157 | 0.435 | inactive
CG1136 | DRSC08184 | 0.695 | -0.686 | -1.08 | inactive
CG10053 | DRSC12502 | 0.695 | 0.446 | -0.388 | inactive
CG10053 | DRSC29993 | 0.28 | 1.41 | -0.453 | inactive
CG8419 | DRSC03087 | -1.18 | -2.69 | -0.649 | inactive
scaf (scarface) | DRSC04849 | -0.599 | 0.547 | 0.526 | inactive
H2.0 (Homeodomain protein 2.0) | DRSC03340 | -0.237 | 1.51 | 0.68 | inactive
H2.0 (Homeodomain protein 2.0) | DRSC22555 | 0.9 | 0.823 | 1.07 | inactive
psq (pipsqueak) | DRSC23094 | 0.357 | 0.765 | -0.161 | inactive
psq (pipsqueak) | DRSC38444 | 0.0961 | 0.855 | -0.579 | inactive
snz (snazarus) | DRSC17969 | 0.369 | 0.214 | 0.732 | inactive
CG5339 | DRSC04496 | 1.07 | 0.235 | 0.57 | inactive
Cyp6a22 (Cytochrome P450 6a22) | DRSC07382 | 0.218 | -1.22 | -0.414 | inactive
Cyp6a22 (Cytochrome P450 6a22) | DRSC24011 | 0.962 | -0.0503 | -1.15 | inactive
Cdc6 (Cell division cycle 6) | DRSC10563 | -0.294 | 0.516 | 1.24 | inactive
CG7794 | DRSC16313 | -0.972 | -0.592 | -4.45 | inactive
SP1029 | DRSC16848 | -0.233 | -0.703 | 0.844 | inactive
SP1029 | DRSC25584 | -0.65 | 0.56 | -0.868 | inactive
Nacalpha (Nascent polypeptide associated complex protein alpha subunit) | DRSC07477 | 0.487 | 0.258 | 1.58 | inactive
Nacalpha (Nascent polypeptide associated complex protein alpha subunit) | DRSC25351 | -2.26 | 0.628 | 0.301 | inactive
CG34167 | DRSC38911 | -0.249 | 1.4 | 1.04 | inactive
l(2)10685 (lethal (2) 10685) | DRSC00665 | 0.0138 | -3.74 | -1.78 | inactive
l(2)10685 (lethal (2) 10685) | DRSC27739 | 0.745 | 0.666 | 0.0914 | inactive
Fili (Fish-lips) | DRSC04132 | 1.06 | -1.33 | -0.931 | inactive
Fili (Fish-lips) | DRSC04445 | 0.102 | 0.252 | 0.742 | inactive
Alp10 (Alkaline phosphatase 10) | DRSC09749 | -0.201 | -0.217 | 0.602 | inactive
Alp10 (Alkaline phosphatase 10) | DRSC29230 | -0.072 | 0.298 | 1.02 | inactive
Alp10 (Alkaline phosphatase 10) | DRSC41597 | 0.474 | -0.1 | 0.532 | inactive
cathD (cathepsin D) | DRSC07588 | 0.685 | 0.13 | -0.0332 | inactive

Records above marked active:
Gene | DRSC id | Wolbachia per cell robust z, rep 1 | Wolbachia per cell robust z, rep 2 | Wolbachia per cell robust z, rep 3 | Outcome
Dyro (Dpt-YFP repressor by overexpression) | DRSC10598 | -2.29 | 0.29 | -5.87 | active
